In patent US6509033B1, “Immunomodulatory peptides” (President and Fellows of Harvard College, priority 1992, dated 2003):

Molecular target: T1, HLA-DR1 (Homo sapiens, UniProt P01903+P01911, A100R/D57E/F55L/F60I/F76Y/I96L/L162R/M171V/P40L/Q125E/R42F/V115G/Y59C)
T1 construct: made in house; host or cells: Sf9 insect cells
Test: Competition of synthetic peptides against 125I-labeled HA 307-319 for binding to empty HLA-DR1 (Ki)
Conditions: read-out: Ki vs HA 307-319; concentration inhibiting 50% of 125I-labeled HA 307-319 binding; 10 nM labeled peptide, 10 nM empty HLA-DR1 from Sf9 insect cells, pH 7.2, 37° C., 85 hours

Ki: 66 ± 18 nM
Compound: CC[C@H](C)[C@H](NC(=O)[C@H](CCC(N)=O)NC(=O)[C@H](CC(N)=O)NC(=O)[C@H](CC(C)C)NC(=O)[C@@H](NC(=O)[C@H](Cc1c[nH]cn1)NC(=O)[C@H](CCCCN)NC(=O)[C@@H](N)Cc1ccc(O)cc1)[C@@H](C)O)C(=O)N[C@@H](CC(=O)O)C(=O)N[C@@H](CO)C(=O)N[C@H](C(=O)N[C@@H](CCCCN)C(=O)N[C@H](C(=O)N[C@@H](Cc1c[nH]c2ccccc12)C(=O)N1CCC[C@H]1C(=O)N[C@@H](CCCNC(=N)N)C(=O)N[C@@H](CCCNC(=N)N)C(=O)O)C(C)C)C(C)C [Bovine Fetuin 56-72]
